Measured values from several laboratories, pooled; numbers as filed in NIAID ChemDB.

Shared fields: whole-cell or culture tests; species: Rhinovirus; endpoint: EC50

ECn: concentration that inhibits the pathogen or its effect by n%. Lines come from different laboratories, so protocols vary.

SMILES | strain | method | cells | value
CN(C)c1nc(C(F)(F)F)nc2c1ncn2Cc1ccc([N+](=O)[O-])cc1 | Serotype 1A | plaque count | M-HELA | >4 µM
CCOC(=O)c1ccc(OCCCCOc2ccc(-c3snc(SC)c3C#N)cc2)cc1 | Serotype 42 (group A) | cytopathic effect | HELA-OHIO | >2 µM
COc1ccc(-c2snc(SC)c2C#N)cc1 | Serotype 89 (group B) | cytopathic effect | HELA-OHIO | >12 µM
CSc1nsc(-c2ccc(OCCCCOc3ccc(C#N)cc3)cc2)c1C#N | Serotype 72 (group A) | cytopathic effect | HELA-OHIO | >2 µM
CCO/N=C/c1ccc(OCCC2CCN(c3ccc(Cl)nn3)CC2)cc1 | CH47 (ICAM-1 receptor group 57) | neutral red | KB | 0.103 µM
CN(C)c1nc(C(F)(F)F)nc2c1ncn2Cc1ccc(Cl)cc1 | TYPE 1B | plaque count | M-HELA | 0.03 µM
Fc1cccc(Nc2nc(C(F)(F)F)nc3c2ncn3Cc2ccccc2F)c1 | Serotype 4 | plaque count | M-HELA | >20 µM
CSc1nsc(-c2ccc(OCCCc3ccccc3)cc2)c1C#N | Serotype 86 (group A) | cytopathic effect | HELA-OHIO | 2 µM
CN(C)c1nc(C(F)(F)F)nc2c1ncn2Cc1ccc(Cl)c(N)c1 | Serotype 1B | plaque count | M-HELA | 0.19 µM
CSc1nsc(-c2ccc(OCCCCOc3ccc([N+](=O)[O-])cc3)cc2)c1C#N | Serotype 85 (group B) | cytopathic effect | HELA-OHIO | >0.5 µM
Cc1cc(Cn2cnc3c(N(C)C)nc(C(F)(F)F)nc32)ccc1Cl | Serotype 8 | plaque count | M-HELA | >8 µM
Cc1cc(CCCCCOc2c(Cl)cc(C3=NCCO3)cc2Cl)on1 | TYPE 14 | plaque count | HeLa | 0.82 µg/mL
CSc1nsc(-c2ccc(OCCCOc3ccccc3)cc2)c1C#N | Serotype 15 (group B) | cytopathic effect | HELA-OHIO | >20 µM
CSc1ccc(Cn2cnc3c(N(C)C)nc(C(F)(F)F)nc32)cc1 | Serotype 1B | plaque count | M-HELA | 0.07 µM
CCOC(=O)c1ccc(OCCC2CCN(c3ccc(C)nn3)CC2)cc1 | Serotype 70 (group A) | cytopathic effect | HELA-OHIO | 0.005 µM
CSc1nsc(-c2ccc(OCc3ccccc3)cc2)c1C#N | Serotype 85 (group B) | cytopathic effect | HELA-OHIO | 1 µM
Cc1cc(CCCOc2c(C)cc(-c3noc(C(F)(F)F)n3)cc2C)on1 | Isolate 27 | cytopathic effect / visual reading | OHIO HELA-I | 0.02 µg/mL
Fc1cccc(Cn2cnc3c(Nc4cccc(F)c4)nc(C(F)(F)F)nc32)c1 | Serotype 5 | plaque count | M-HELA | 13 µM
CSc1nsc(-c2ccc(OS(=O)(=O)c3ccc(C)cc3)cc2)c1C#N | Serotype 9 (group B) | cytopathic effect | HELA-OHIO | 0.9 µM
COc1ccc(Cn2cnc3c(N(C)C)nc(C(F)(F)F)nc32)cc1C | Serotype 3 | plaque count | M-HELA | >8 µM

A second listing of 2 rows from above:

SMILES,strain,method,cells,value
CCOC(=O)c1ccc(OCCCCOc2ccc(-c3snc(SC)c3C#N)cc2)cc1,Serotype 42 (group A),cytopathic effect,HELA-OHIO,>2 µM
Cc1cc(CCCCCOc2c(Cl)cc(C3=NCCO3)cc2Cl)on1,TYPE 14,plaque count,HeLa,0.82 µg/mL